Anti-infective test results gathered from many reports (values: NIAID ChemDB through PubChem).

CCn: concentration that lowers growth or viability of the cells by n%. Lines come from different laboratories, so protocols vary. An empty or dashed field is not shown. ECn: concentration that inhibits the pathogen or its effect by n%. A number after MIC or MFC names an inhibition level or a share of isolates. Percent inhibition refers to the dose given; in toxicity tests it is the harm to the cells. ICn: concentration for n% inhibition. Fold resistance has wild type as its base.

structure | test | species | strain or isolate | changes | cell line | protein | read by | conditions | endpoint | dose | result
CC(C)=CCOc1cc(NC(=S)c2ccoc2C)ccc1Cl | target | HIV |  | RT-N137T |  | Reverse transcriptase | nucleotide incorporation / radiometric |  | IC50 |  | 0.03 µM
CC1(C)S[C@H]([C@H](NC(=O)Cc2ccccc2)C(=O)NCc2ccccc2)N[C@H]1C(=O)N[C@H](Cc1ccccc1)[C@H](O)CC(=O)NCc1ccccc1 | host protein | Sus domesticus |  |  |  | Pepsin | nucleotide incorporation |  | IC50 |  | >500 µM
Nc1nc2c(ncn2[C@H]2CC[C@@H](COP(=O)(O)OP(=O)(O)OP(=O)(O)O)O2)c(=O)[nH]1 | target | HIV |  | RT-N137A |  | Reverse transcriptase | nucleotide incorporation / radiometric |  | fold resistance |  | 4
Nc1nc2c(ncn2CCOCP(=O)(O)O)c(=O)[nH]1 | culture | Parainfluenza virus | 14798 (TYPE 3) |  |  |  | virus yield |  | EC90 |  | 7 µg/mL
Nc1ncnc2c([C@@H]3O[C@H](CO)[C@@H](O)[C@H]3O)[nH]nc12 | toxicity |  |  |  | HeLa |  |  |  | CC50 |  | 54 µM
COc1cc(OC)cc(N(C)Cc2cnc3nc(N)nc(N)c3c2C)c1 | culture | Encephalitozoon intestinalis |  |  | RK-13 |  |  |  | inhibition | 0.1 µg/mL | 53.6%
O=C(C1CCCCC1)N1C[C@H](CN2CCC(c3ccccc3)CC2)[C@@H](c2ccccc2)C1 | target |  |  | CCR5-Y251A |  | CCR5 | radiometric |  | fold resistance |  | 12.17
O=C(Nc1nnc(NCCCCc2ccccc2)s1)c1ccc(I)cc1 | target | Human cytomegalovirus |  |  |  | Polymerase |  |  | IC50 |  | <25 µM
CC1(C)[C@@H](O[C@H]2O[C@H](C(=O)O)[C@@H](O)[C@H](O)[C@H]2O[C@@H]2O[C@H](C(=O)O)[C@@H](O)[C@H](O)[C@H]2O)CC[C@]2(C)[C@H]3C(=O)C=C4[C@@H]5C[C@@](C)(C(=O)O)CC[C@]5(C)CC[C@@]4(C)[C@]3(C)CC[C@@H]12 | culture | Dengue virus | TYPE 4 (YUNH) |  | VERO |  | virus yield |  | EC90 |  | 416 µg/mL
CO[P@](=O)(c1cc(C)cc(/C=C/C#N)c1)c1c(C(N)=O)[nH]c2ccc(Cl)c(F)c12 | host protein | Human |  |  |  | DNA polymerase beta |  |  | IC50 |  | ≥422.2 µM
CCN(CC)CCCC(C)Nc1c2ccc(Cl)cc2nc2ccc(OC)cc12 | culture | Encephalitozoon intestinalis |  |  | RK-13 |  |  |  | inhibition | 1 µg/mL | 36.7%
C=CCN(C(=O)OCc1ccc([N+](=O)[O-])cc1)C1CCN(CC[C@](C)(CN(C)S(=O)(=O)c2ccccc2)c2ccccc2)CC1 | target |  |  | CCR5-Y108A |  | CCR5 | radiometric |  | fold resistance |  | 135.3
COc1ccc2cc3[n+](cc2c1OC)CCc1cc2c(cc1-3)OCO2 | culture | Vittaforma corneae |  |  | RK-13 |  |  |  | inhibition | 10 µg/mL | 63.1%
CCNC(=O)[C@@H](NC(=O)Cc1ccccc1)[C@@H]1N[C@@H](C(=O)NCCNC(=O)[C@@H]2N[C@@H]([C@H](NC(=O)Cc3ccccc3)C(=O)NCC)SC2(C)C)C(C)(C)S1 | host protein | Human |  |  |  | Renin | HPLC |  | IC50 |  | >500 µM
CCCCCCCC/C=C/CCCCCCCC(=O)Nc1nnc(NCCNC(C)=O)s1 | target | Human cytomegalovirus |  |  |  | Polymerase |  |  | IC50 |  | <25 µM
CCO/N=C/c1ccc(OCCC2CCN(c3ccc(C)nn3)CC2)cc1 | culture | Rhinovirus | K6579 (ICAM-1 receptor group 100) |  | KB |  | neutral red |  | EC50 |  | 0.014 µM
CC[C@H]1C[C@]1(NC(=O)[C@@H]1C[C@@H]2CN1C(=O)[C@H](C(C)(C)C)NC(=O)OCC(C)(C)CCCCc1cccc3c1CN(C3)C(=O)O2)C(=O)NS(=O)(=O)C1CC1 | host protein |  |  |  |  | Cathepsin S | substrate cleavage |  | IC90 |  | >100 µM
CC(=O)c1cc(O)c(O)c(=O)cc1C | toxicity |  |  |  | HepG2-NTCP-12 |  | MTS | 7 d | CC50 |  | 6.74 µM
Cc1cn([C@@H]2O[C@H](CO[Si](C)(C)C(C)(C)C)[C@@]3(OS(=O)(=O)C=C3N)[C@H]2O[Si](C)(C)C(C)(C)C)c(=O)[nH]c1=O | target | HIV |  | RT-N137D |  | Reverse transcriptase | nucleotide incorporation / radiometric |  | IC50 |  | 1.1 µM
N#Cc1ccc(C(=O)Nc2nnc(NCCCNC3CCCCC3)s2)cc1 | target | Human cytomegalovirus |  |  |  | Polymerase |  |  | IC50 |  | <25 µM
C#CC[C@@H](C(=O)N[C@H](/C=C/C(=O)OCC)C[C@@H]1CCNC1=O)n1cccc(NC(=O)c2cc(C)on2)c1=O | culture | Rhinovirus | Serotype 12 |  | H1-HELA |  | cytopathic effect / XTT |  | EC50 |  | 0.107 µM
CCCCCCCCCCCNc1nnc(NC(=O)c2cccc([N+](=O)[O-])c2)s1 | target | Human cytomegalovirus |  |  |  | Polymerase |  |  | IC50 |  | <25 µM
CN(CC(C)(CCN1CCC(N(CCO)C(=O)OCc2ccc([N+](=O)[O-])cc2)CC1)c1ccsc1)S(=O)(=O)c1ccccc1 | target |  |  | CCR5-W86A |  | CCR5 | radiometric |  | fold resistance |  | 455
O=C(NC(=O)c1c(F)cccc1F)Nc1cc(Cl)c(OC(F)(F)C(F)C(F)(F)F)cc1Cl | culture | Vittaforma corneae |  |  | RK-13 |  |  |  | inhibition | 10 µg/mL | 62.5%
c1cc(CN2CCCNCCNCCCNCC2)ccc1CN1CCCNCCNCCCNCC1 | host protein | Human |  |  |  | CXCR3 | calcium flux |  | IC50 |  | >25 µg/mL
CC1(C)C2CC[C@@H](CNc3nnc(NC(=O)c4cc5ccccc5s4)s3)C1C2 | target | Human cytomegalovirus |  |  |  | Polymerase |  |  | IC50 |  | >25 µM
C[C@H](Cc1ccc(O)c(O)c1)[C@@H](C)Cc1ccc(O)c(O)c1 | culture | Candida albicans | CCC 126-2000 |  |  |  | broth dilution |  | MIC50 |  | 125 µg/mL
O=C(Nc1nnc(NCc2cccs2)s1)c1cc2ccccc2s1 | target | Human cytomegalovirus |  |  |  | Polymerase |  |  | IC50 |  | >25 µM
CN[C@@H]1[C@@H](O)[C@@H](O[C@@H]2[C@@H](O)[C@H](O[C@H]3OC([C@H](C)N)=CC[C@H]3N)[C@@H](N)C[C@H]2N)OC[C@]1(C)O | toxicity |  |  |  | HeLa |  |  |  | CC50 |  | >200 µg/mL
Nc1ccnc2c1ncn2[C@H]1C=C[C@@H](OCP(=O)(O)O)O1 | culture | Adenovirus | TRIM (TYPE 8) |  |  |  | cytopathic effect |  | EC50 |  | 8 µg/mL
N#Cc1ccc(C(=O)Nc2nnc(NCc3ccc(F)cc3)s2)cc1 | target | Human cytomegalovirus |  |  |  | Polymerase |  |  | IC50 |  | <25 µM
CC(C)=CCN1Cc2cc(Cl)cc3[nH]c(=S)n(c23)C[C@@H]1C | culture | HIV-1 |  | RT-D67N K70R T215Y K219Q | MT-4 |  |  |  | EC95 |  | 0.4 µM
CCCCCCCCCCCCCCCC(=O)OCC(O)CO | toxicity |  |  |  | HeLa |  |  |  | CC50 |  | 150 µg/mL

The last 2 rows once more:

structure,test,species,strain or isolate,changes,cell line,protein,read by,conditions,endpoint,dose,result
CC(C)=CCN1Cc2cc(Cl)cc3[nH]c(=S)n(c23)C[C@@H]1C,culture,HIV-1,,RT-D67N K70R T215Y K219Q,MT-4,,,,EC95,,0.4 µM
CCCCCCCCCCCCCCCC(=O)OCC(O)CO,toxicity,,,,HeLa,,,,CC50,,150 µg/mL